Measured values: PMC7599555 (Biomedicines, 2020)

Amino acid sequences for entries named in this document (tags omitted).
UniProt Q9UQD0, whole entry, looked up: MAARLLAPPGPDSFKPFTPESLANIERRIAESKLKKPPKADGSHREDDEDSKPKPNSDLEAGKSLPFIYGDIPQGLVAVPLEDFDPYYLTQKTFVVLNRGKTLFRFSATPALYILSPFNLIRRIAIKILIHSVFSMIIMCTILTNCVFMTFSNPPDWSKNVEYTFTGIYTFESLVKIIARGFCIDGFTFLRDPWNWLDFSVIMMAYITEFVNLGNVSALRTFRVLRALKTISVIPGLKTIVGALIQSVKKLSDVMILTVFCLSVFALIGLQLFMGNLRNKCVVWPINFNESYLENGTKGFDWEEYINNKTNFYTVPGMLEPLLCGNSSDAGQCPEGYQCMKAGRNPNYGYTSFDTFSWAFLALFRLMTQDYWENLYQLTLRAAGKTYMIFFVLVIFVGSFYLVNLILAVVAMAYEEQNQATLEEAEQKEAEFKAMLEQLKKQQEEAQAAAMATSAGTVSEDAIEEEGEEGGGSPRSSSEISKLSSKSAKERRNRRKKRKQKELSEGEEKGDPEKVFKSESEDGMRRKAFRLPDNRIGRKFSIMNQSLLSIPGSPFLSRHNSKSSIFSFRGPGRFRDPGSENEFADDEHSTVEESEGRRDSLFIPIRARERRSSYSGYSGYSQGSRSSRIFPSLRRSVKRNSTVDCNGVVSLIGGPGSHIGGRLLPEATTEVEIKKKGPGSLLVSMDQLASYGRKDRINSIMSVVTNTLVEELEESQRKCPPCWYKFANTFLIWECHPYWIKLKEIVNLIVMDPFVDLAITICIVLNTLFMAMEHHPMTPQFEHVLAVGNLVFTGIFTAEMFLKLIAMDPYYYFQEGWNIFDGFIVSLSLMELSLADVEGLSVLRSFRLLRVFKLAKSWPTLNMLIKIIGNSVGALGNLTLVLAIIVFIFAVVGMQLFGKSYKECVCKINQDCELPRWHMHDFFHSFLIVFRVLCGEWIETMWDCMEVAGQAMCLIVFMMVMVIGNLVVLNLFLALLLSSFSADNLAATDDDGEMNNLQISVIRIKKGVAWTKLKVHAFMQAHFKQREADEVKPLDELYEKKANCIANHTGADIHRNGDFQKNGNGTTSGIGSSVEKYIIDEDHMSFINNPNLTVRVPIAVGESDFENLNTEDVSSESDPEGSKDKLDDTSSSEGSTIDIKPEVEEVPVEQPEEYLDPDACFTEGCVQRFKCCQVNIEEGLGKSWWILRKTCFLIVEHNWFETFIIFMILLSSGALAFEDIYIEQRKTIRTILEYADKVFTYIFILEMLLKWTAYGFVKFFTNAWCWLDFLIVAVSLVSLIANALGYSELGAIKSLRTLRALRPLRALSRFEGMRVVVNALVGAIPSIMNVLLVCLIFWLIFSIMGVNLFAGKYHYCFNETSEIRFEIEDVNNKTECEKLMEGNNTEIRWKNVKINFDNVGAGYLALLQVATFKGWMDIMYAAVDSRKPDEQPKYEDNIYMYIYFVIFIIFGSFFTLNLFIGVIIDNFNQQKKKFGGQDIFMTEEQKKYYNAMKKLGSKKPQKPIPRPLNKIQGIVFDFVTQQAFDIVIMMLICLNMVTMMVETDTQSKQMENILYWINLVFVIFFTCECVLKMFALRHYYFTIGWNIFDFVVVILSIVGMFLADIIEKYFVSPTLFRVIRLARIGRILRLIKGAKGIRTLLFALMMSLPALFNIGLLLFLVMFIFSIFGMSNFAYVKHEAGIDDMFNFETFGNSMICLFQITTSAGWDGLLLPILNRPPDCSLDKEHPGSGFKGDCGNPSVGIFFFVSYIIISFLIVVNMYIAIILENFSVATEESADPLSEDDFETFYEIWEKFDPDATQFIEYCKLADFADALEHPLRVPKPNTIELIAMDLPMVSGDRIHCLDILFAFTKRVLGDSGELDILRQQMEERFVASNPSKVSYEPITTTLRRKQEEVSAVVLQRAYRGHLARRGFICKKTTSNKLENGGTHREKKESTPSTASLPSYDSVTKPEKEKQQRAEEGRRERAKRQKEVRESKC

Columns and labels:
hNaV1.2 = hNaV1.2 (Homo sapiens, UniProt Q99250); test: Automated whole-cell patch-clamp, hNaV1.2; settings: hNaV1.2/β1 in HEK293, QPatch-16; 50 ms pulse to −20 mV from −90 mV every 20 s; 5 min incubation, 22 °C, pH 7.4, 0.1% BSA; mean ± SEM, n = 5
hNaV1.3 = hNaV1.3 (Homo sapiens, UniProt Q9NY46); test: Automated whole-cell patch-clamp, hNaV1.3; settings: hNaV1.3/β1 in HEK293, QPatch-16; 50 ms pulse to −20 mV from −90 mV every 20 s; 5 min incubation, 22 °C, pH 7.4, 0.1% BSA; mean ± SEM, n = 3
hNaV1.1 = hNaV1.1 (Homo sapiens, UniProt P35498); test: Automated whole-cell patch-clamp, hNaV1.1; settings: hNaV1.1/β1 in HEK293, QPatch-16; 50 ms pulse to −20 mV from −90 mV every 20 s; 5 min incubation, 22 °C, pH 7.4, 0.1% BSA; mean ± SEM, n = 5
hNaV1.6 = hNaV1.6 (Homo sapiens, UniProt Q9UQD0); test: Automated whole-cell patch-clamp, hNaV1.6; settings: hNaV1.6/β1 in HEK293, QPatch-16; 50 ms pulse to −20 mV from −90 mV every 20 s; 5 min incubation, 22 °C, pH 7.4, 0.1% BSA; mean ± SEM, n = 4
hNaV1.7 = hNaV1.7 (Homo sapiens, UniProt Q15858); test: Automated whole-cell patch-clamp, hNaV1.7; settings: hNaV1.7/β1 in HEK293, QPatch-16; 50 ms pulse to −20 mV from −90 mV every 20 s; 5 min incubation, 22 °C, pH 7.4, 0.1% BSA; mean ± SEM, n = 4

Structure (SMILES): C[C@@H]1NC(=O)[C@H](Cc2c[nH]cn2)NC(=O)[C@H](CC(=O)O)NC(=O)[C@H](CCCNC(=N)N)NC(=O)[C@@H]2CSSC[C@H](NC(=O)CNC(=O)[C@@H](N)CCCNC(=N)N)C(=O)N[C@H]3CSSC[C@H](NC(=O)[C@H](CCCNC(=N)N)NC1=O)C(=O)N[C@H](C(N)=O)CSSC[C@H](NC(=O)CNC(=O)CNC(=O)[C@H](CCCNC(=N)N)NC(=O)CNC(=O)[C@H](CC(N)=O)NC3=O)C(=O)N[C@@H](CO)C(=O)N[C@@H](CO)C(=O)N[C@@H](CCCNC(=N)N)C(=O)N[C@@H](Cc1c[nH]c3ccccc13)C(=O)N2
- IC50 (hNaV1.2): 364 nM
- IC50 (hNaV1.3): 89.4 nM
- IC50 (hNaV1.1): 132 nM
- IC50 (hNaV1.6): 125 nM
- IC50 (hNaV1.7): 152 nM
